Assay results published in article PMC7418971 (PLoS Pathogens, 2020).

Test system: Eng195 in MDCK culture
Conditions: 80 μM compound, MOI 0.001 at bottleneck

Row | SMILES | output titres (passage 14) after bottleneck at passage eight
1 | Cc1c2ccccc2n2cc(-c3ccccc3)nc(C(C)C)c12 [DL7] | recovered to a similar range as controls
2 | COc1ccccc1NC(=S)NC(=O)c1cc2ccccc2cc1OC [L1.1] | significant reduction
